The data set has as its system CC(=O)SCCNC(=O)CCNC(=O)[C@H](O)C(C)(C)COP(=O)(O)OP(=O)(O)OC[C@H]1O[C@@H](n2cnc3c(N)ncnc32)[C@H](O)[C@@H]1OP(=O)(O)O. Nature of the data set: purified protein.

By Km is commonly meant the concentration of substrate that gives half-maximal velocity.

With “MetA (HSAT, homoserine acetyl transferase, Rv3341) (Mycobacterium tuberculosis H37Rv)”, the Km came to 328 µM.

The record behind these values is article doi:10.1101/2020.09.01.277368v1.
